Pooled drug test results. Numbers come from NIAID ChemDB, via PubChem.

Shared fields: host cell toxicity; cell line: VERO; endpoint: CC50

Blank or dashed fields: not listed here.

smiles,method,value
CC(Sc1ncnc2c1cnn2CCCCO)C(N)=O,-,>400 µg/mL
O=C(O)c1c2n(c3cc(N4CCC(N5CCCCC5)CC4)c([N+](=O)[O-])cc3c1=O)CS2,MTT,141 µM
COc1ccc2c(c1)[n+]([O-])c(-c1ccccc1)c(N)[n+]2[O-],-,16.28 µg/mL
O=c1[nH]c(=O)n([C@@H]2O[C@H](CO)[C@@H](O)[C@H]2O)cc1-n1cc(-c2ccc3c4cccc5cccc(c6cccc2c63)c54)nn1,MTT,>20 µM
[N-]=[N+]=CC(=O)CC[C@H](NC(=O)OCc1ccccc1)C(=O)OCc1ccccc1,-,3.26 µg/mL
CCc1nc2cc(C)ccn2c1C(=O)NCc1ccc2c(c1)CCO2,-,>32 µM
CCc1nc2ccc(OC)cc2n1CCCSc1nnc(-c2ccc(Cl)cc2)o1,luminescence,49 µM
CO[C@H]1[C@H](O)[C@@H](CO)O[C@H]1n1cc(C#Cc2ccc3c4cccc5cccc(c6cccc2c63)c54)c(=O)[nH]c1=O,MTT,>20 µM
Cn1c(=O)cc2c3c(c(N)ccc31)C(=O)c1ccccc1-2,-,0.4 µg/mL
CCC(Sc1ncnc2c1cnn2COCC(O)CO)C(N)=O,-,>400 µg/mL
Nc1nc(=O)n([C@H]2O[C@@H](CO)[C@H](O)C2(F)F)cc1F,-,>100 µM
CC1=NN(c2ccccc2)C(=O)C1N=Nc1ccc(S(=O)(=O)Nc2nnc(C)s2)cc1,-,18.54 µg/mL
O=c1[nH]c(=O)n([C@@H]2O[C@H](CO)[C@@H](O)[C@H]2O)cc1-n1cc(-c2ccccc2)nn1,MTT,>20 µM
CCN(CC)c1ccc2nc3c4ccccc4c(=NC(=O)c4ccccc4-c4c5ccc(N(CC)CC)cc5[o+]c5cc(N(CC)CC)ccc45)cc-3oc2c1.[Cl-],-,13.87 µg/mL
C=CCc1nc(C)n2c(=O)[nH]c(NC(C)=O)nc12,-,200 µg/mL
CCc1nc2ccccc2n1CCCNc1ccc(C)cc1,luminescence,31 µM
O=C(CN1CCN(c2cc3c(cc2F)c(=O)c(C(=O)O)cn3C2CC2)CC1)c1ccc(Br)cc1,-,6.5 µg/mL
COc1c(N2CCNC(C)C2)c(F)cc2c(=O)c(C(=O)O)cn(C3CC3)c12,MTT,>155.3 µM
CCn1cc(C(=O)O)c(=O)c2cc(F)c(N3CCN(CC(=O)c4ccc(F)cc4)CC3)cc21,-,>10 µg/mL
CCc1nc2sc(C)cn2c1C(=O)NCc1ccc(S(F)(F)(F)(F)F)cc1,-,>32 µM
C=C1C(=O)C23OC2C1CCC(=O)C1(C)CCC(OC(C)=O)C(C)(C)C1CC3=O,-,0.14 µg/mL
Nc1nc(=O)n([C@@H]2O[C@@H](CO)[C@H](O)C2(F)F)cc1F,-,>100 µM
COc1cc2c(c(NC(C)CCCN=C(N)NC(N)=NC(C)C)c1)NCCC2,-,56 µg/mL
O=c1[nH]c(=O)n([C@@H]2O[C@@]3(CO)CO[C@H]2[C@@H]3O)cc1C#Cc1ccc2c3cccc4cccc(c5cccc1c52)c43,MTT,>20 µM
CCCCCCN(CCCCCC)/N=C/c1c2c(O)c3c(O)c(C)c4c(c3c1O)C(=O)[C@@](C)(O/C=C/[C@H](OC)[C@@H](C)[C@@H](OC(C)=O)[C@H](C)[C@H](O)[C@H](C)[C@@H](O)[C@@H](C)/C=C/C=C(/C)C(=O)N2)O4,-,11.29 µg/mL
Nc1nc(=O)n([C@H]2O[C@@H](CO)[C@H](O)C2(F)F)cc1Br,-,>100 µM
CCc1nc2ccc(C)cc2n1CCCCNc1ccc(OC)cc1,luminescence,14 µM
O=c1ccn([C@H]2O[C@@H](CO)[C@H](O)C2(F)F)c(=O)[nH]1,-,>100 µM
COc1cc2c(cc1OC)CN(c1cc3c(cc1F)c(=O)c(C(=O)O)c1n3CS1)CC2,MTT,141 µM
O=c1[nH]c(=O)n([C@@H]2O[C@@H](CO)[C@H](O)C2(F)F)cc1I,-,>100 µM
CN1CCN(c2cc3c(cc2[N+](=O)[O-])c(=O)c(C(=O)O)c2n3CS2)CC1c1ccccc1,MTT,69.06 µM
Cc1ccn2c(C(=O)NCc3ccc(N4CCC(c5ccc(OC(F)(F)F)cc5)CC4)cc3)c(C)nc2c1,-,>32 µM
CCN(CC)Cc1cc(Nc2cc(Cl)c3ccc(N(C)C)cc3n2)ccc1O.Cl.Cl.Cl,-,2.65 µg/mL
O=C(O)c1cn(C2CC2)c2cc(N3CCN(C/C(=N/O)c4ccc(F)cc4)CC3)c(F)cc2c1=O,-,>10 µg/mL
Nc1nc(=O)n(C2O[C@@H](CO)[C@H](O)C2(F)F)cc1Br,-,>100 µM
Cc1ccn2c(C(=O)NCc3ccc4c(c3)CCO4)c(C)nc2c1,-,>32 µM
Cc1c(C(=O)/C=C/c2ccccc2[N+](=O)[O-])[n+](=O)c2ccccc2n1[O-],-,1.05 µg/mL
[C-]#[N+][C@@]12[C@@](C)(C=C)[C@H](Cl)C[C@@H]3C(C)(C)c4cccc5[nH]c(c(c45)[C@]31O)C(C)(C)[C@]21CO1,MTS,>128 µM
CCc1nc2ccc(Cl)cn2c1C(=O)NCc1ccc(N2CCS(=O)CC2)cc1,-,>32 µM
NC(=O)CSc1ncnc2c1cnn2COCC(O)CO,-,>400 µg/mL
CCCCC(=O)N/N=C/c1ccc([N+](=O)[O-])s1,-,3.89 µg/mL
C=CCc1nc(C)n2c(=O)[nH]c(=S)[nH]c12,-,200 µg/mL
Cc1nc2ccc(F)cn2c1C(=O)NCc1ccc2c(c1)CCO2,-,>32 µM
C[CH2][Sn]([Cl])([Cl])[CH2]C.c1cnc2c(c1)ccc1cccnc12,-,0.95 µg/mL
CCc1nc2ccccc2n1CCCCSc1ccc(OC)cc1,luminescence,34 µM
Cc1nc(C(C)C)c2[nH]c(=S)[nH]c(=O)n12,-,200 µg/mL
CC(C)(C)NC(=O)C1c2ccccc2CCN1c1cc2c(cc1F)c(=O)c(C(=O)O)c1n2CS1,MTT,130 µM
Cc1ccn2c(C(=O)NCc3ccc(N4CCN(c5ccc(C(F)(F)F)cc5)CC4)c(F)c3)c(C)nc2c1,-,>32 µM
CCc1nc2ccc(C)cc2n1CCCNc1ccc(OC)cc1,luminescence,91 µM
Cc1ccn2c(C(=O)NCc3ccc(NCCOCCNC(=O)OC(C)(C)C)c(F)c3)c(C)nc2c1,-,>32 µM
CC1=CC(=NC(=O)CBr)C=C/C1=N\S(=O)(=O)c1ccccc1,-,0.66 µg/mL

For reference, 3 entries again:

| smiles | method | value |
|---|---|---|
| CO[C@H]1[C@H](O)[C@@H](CO)O[C@H]1n1cc(C#Cc2ccc3c4cccc5cccc(c6cccc2c63)c54)c(=O)[nH]c1=O | MTT | >20 µM |
| Cc1ccn2c(C(=O)NCc3ccc(N4CCN(c5ccc(C(F)(F)F)cc5)CC4)c(F)c3)c(C)nc2c1 | - | >32 µM |
| CC(C)(C)NC(=O)C1c2ccccc2CCN1c1cc2c(cc1F)c(=O)c(C(=O)O)c1n2CS1 | MTT | 130 µM |

CCn is the concentration with n% toxicity to the cells. Lines come from different laboratories, so protocols vary.